# Reference: patent US20040029254A1, “Method of screening anti-bacterial agents for effectiveness in treating persistant intracellular infections” (University of Washington, priority 2002, published 2004)
# Test system: C. psittaci 6BC, GPIC
Compound,MCC1 (shell vial),MCC (microtiter)
"C[C@H]1c2cccc(O)c2C(=O)C2=C(O)[C@]3(O)C(=O)C(C(N)=O)=C(O)[C@@H](N(C)C)[C@@H]3[C@@H](O)[C@@H]21 [Doxycycline, doxycycline]",>8 µg/mL,0.250 µg/mL
"CC1COc2c(N3CCN(C)CC3)c(F)cc3c(=O)c(C(=O)O)cn1c23 (stereo not shown) [Ofloxacin, ofloxacin]",>8 µg/mL,2.0 µg/mL
